“And” between values parts separate entries of the source, which are not always exact repeats. Equal values may be shown once. The entries are a selection whose mix differs from that of the whole data set. The source made the active and inactive calls. Rule as the data show it: active = inhibition above about 50%; inactive = the rest.
The compounds below were run on Plasmodium falciparum apicoplast DNA polymerase (apPOL) (assay: Pf-apPOL inhibitors, biochemical, fluorescence (AID 1794808)). Conditions: Recombinant Pf-apPOL, molecular beacon fluorescence, 1.5 h; at 10 µM; hits give high values.
In the case of O=C(Nc1nnc(N=Cc2ccc([N+](=O)[O-])s2)s1)c1cc([N+](=O)[O-])cc([N+](=O)[O-])c1, the inhibition is reported as inactive: -3.8%.
With O=C(NC(Nc1cccc([N+](=O)[O-])c1)C(Cl)(Cl)Cl)c1cc([N+](=O)[O-])cc([N+](=O)[O-])c1 (centres undefined) the inhibition was inactive: -1.9%.
O=[N+]([O-])c1cc2c(c([N+](=O)[O-])c1)-c1c(cc([N+](=O)[O-])cc1[N+](=O)[O-])C2=Cc1ccccc1O was tested, and the inhibition was inactive: -1.1%.
In the case of O=C(NC(Sc1ncccn1)C(Cl)(Cl)Cl)c1ccccc1 (centres undefined), the inhibition is reported as inactive: -0.1%.
In the case of CC1C(=O)OC(C(Cl)(Cl)Cl)N1C(O)C(Cl)(Cl)Cl (centres undefined), the inhibition is reported as inactive: -7.2%.
With COc1ccc(N=Cc2c([N+](=O)[O-])cc([N+](=O)[O-])cc2[N+](=O)[O-])cc1 the inhibition was inactive: 0%.
In the case of Nc1nonc1OCCOc1nonc1N, the inhibition is reported as inactive: -1.8%.
In the case of O=C(Cn1cnc([N+](=O)[O-])n1)NCCO[N+](=O)[O-], the inhibition is reported as inactive: 0.2%.
O=[N+]([O-])c1cc(S(=O)(=O)c2cc([N+](=O)[O-])c(O)c([N+](=O)[O-])c2)cc([N+](=O)[O-])c1O was tested, and the inhibition was inactive: -0.7%.
Cc1nc2c(C)cccc2c2c1CC(C(Cl)Cl)S2 (centres undefined) was tested, and the inhibition was inactive: -3.5%.
For O=[N+]([O-])c1ccc(-n2ncc3ccc([N+](=O)[O-])cc32)c([N+](=O)[O-])c1, the inhibition was inactive: 2%.
For O=C(NC(Nc1ccc([N+](=O)[O-])cc1)C(Cl)(Cl)Cl)c1cc([N+](=O)[O-])cc([N+](=O)[O-])c1 (centres undefined), the inhibition was inactive: -0.8%.
CN(C)C(=O)NC(SC1=NCCS1)C(Cl)(Cl)Cl (centres undefined) was tested, and the inhibition was inactive: -8.2%.
In the case of O=C(OC1CN2CCC1CC2)c1ccc(Cl)cc1 (centres undefined), the inhibition is reported as inactive: -3.9%.
With CN(C(=O)Cc1ccc(Cl)c(Cl)c1)[C@@H]1CC[C@]2(CCCO2)C[C@H]1N1CCCC1 the inhibition was inactive: -7.8%.
With CN(C(=O)Cc1ccccc1)[C@@H]1CC[C@]2(CCCO2)C[C@H]1N1CCCC1 the inhibition was inactive: 10.4%.
With O=[N+]([O-])c1ccc(Oc2c([N+](=O)[O-])cc(C(F)(F)F)cc2[N+](=O)[O-])cc1 the inhibition was inactive: -3.6%.
With O=P(Nc1nccs1)(Oc1ccccc1)Oc1ccccc1 the inhibition was inactive: -1.6%.
For Cc1ccc(S(=O)(=O)N2CC(=O)SC2C(Cl)(Cl)Cl)cc1 (centres undefined), the inhibition was inactive: -5.2%.
For CC1(C)SC2N(C(=O)C2(Br)Br)C1C(=O)O (centres undefined), the inhibition was inactive: -10%.
With Cc1c(N=Cc2ccc([N+](=O)[O-])cc2)cc([N+](=O)[O-])cc1[N+](=O)[O-] the inhibition was inactive: -16.3%.
CN1CC(=O)NC1=NP(=O)(OCc1ccccc1)OCc1ccccc1 was tested, and the inhibition was inactive: 2.9%.
For CCOC(=O)C(=NNc1ccc([N+](=O)[O-])cc1)N1CC1, the inhibition was inactive: 12.9%.
For Cc1cc(C)nc(SC(NC(=O)c2ccccc2)C(Cl)(Cl)Cl)n1 (centres undefined), the inhibition was inactive: -1.6%.
In the case of O=[N+]([O-])c1ccc(C(O)CNc2c([N+](=O)[O-])cc(C(F)(F)F)cc2[N+](=O)[O-])cc1 (centres undefined), the inhibition is reported as inactive: -22.2%.
For COc1cccc(OP(=O)(Nc2ccccn2)Oc2cccc(OC)c2)c1, the inhibition was inactive: -4.8%.
In the case of O=[N+]([O-])c1ccc(-n2ncc3c([N+](=O)[O-])cc([N+](=O)[O-])cc32)cc1, the inhibition is reported as inactive: -0.9%.
With COc1ccccc1OP(=O)(Nc1ccccn1)Oc1ccccc1OC the inhibition was inactive: 1.2%.
Cc1ccc(C(=O)NC(SC2=NCCS2)C(Cl)(Cl)Cl)cc1 (centres undefined) was tested, and the inhibition was inactive: -0.4%.
With COc1cc(NC(=O)Cn2nc([N+](=O)[O-])c([N+](=O)[O-])c2C)cc([N+](=O)[O-])c1 the inhibition was inactive: -0.2%.
For O=C(NC(SC1=NCCS1)C(Cl)(Cl)Cl)c1ccc([N+](=O)[O-])cc1 (centres undefined), the inhibition was inactive: 0.6%.
Nc1nonc1OCc1nonc1COc1nonc1N was tested, and the inhibition was inactive: -0.7%.
O=C(NC(Sc1ccc(Cl)cc1)C(Cl)(Cl)Cl)c1ccco1 (centres undefined) was tested, and the inhibition was inactive: 4.3%.
In the case of O=C(c1cc([N+](=O)[O-])c(Cl)c([N+](=O)[O-])c1)c1cc([N+](=O)[O-])c(Cl)c([N+](=O)[O-])c1, the inhibition is reported as inactive: -2.8%.
With CN(C(=O)Cc1ccc(Cl)c(Cl)c1)[C@@H]1CCCC[C@@H]1N1CCCC1 the inhibition was inactive: -16.3%.
O=C(NC1CCS(=O)(=O)C1)NP(=S)(Oc1ccccc1)Oc1ccccc1 (centres undefined) was tested, and the inhibition was inactive: -0.9%.
Cc1c([N+](=O)[O-])c([N+](=O)[O-])nn1CC(=O)Nc1ccc([N+](=O)[O-])cc1Cl was tested, and the inhibition was inactive: 0.7%.
For O=C1CCC([N+](=O)[O-])([N+](=O)[O-])CN1CCCCN1CC([N+](=O)[O-])([N+](=O)[O-])CCC1=O, the inhibition was inactive: 5.4%.
Cc1cc(SC(NC(=O)C(C)(C)C)C(Cl)(Cl)Cl)ncn1 (centres undefined) was tested, and the inhibition was inactive: 1.4%.
For Cc1c(N=Cc2ccc([N+](=O)[O-])s2)cc([N+](=O)[O-])cc1[N+](=O)[O-], the inhibition was inactive: -1.6%.
For COc1cc(Br)c([N+](=O)[O-])nc1[N+](=O)[O-], the inhibition was inactive: -1.6%.
With CCOP(=Nc1nc2ccccc2n2nnnc12)(OCC)OCC the inhibition was inactive: -5%.
In the case of CN(C(=O)Cc1ccc(Cl)c(Cl)c1)[C@H]1CCCC[C@@H]1N1CCCC1, the inhibition is reported as inactive: -11.5% and inactive: 7.1%.
For CC(C)(c1cc([N+](=O)[O-])c(O)c([N+](=O)[O-])c1)c1cc([N+](=O)[O-])c(O)c([N+](=O)[O-])c1, the inhibition was inactive: -6.9%.
In the case of CN1C(=O)C2C(NC(=NCCN3CCOCC3)N2C)N(C)C1=O (centres undefined), the inhibition is reported as inactive: -5.8%.
In the case of C1CN(c2nonc2-[n+]2nc3nonc3[n-]2)CCO1, the inhibition is reported as inactive: -0.9%.
For O=C(Nc1nnc(N=Cc2ccc([N+](=O)[O-])s2)s1)c1ccc([N+](=O)[O-])cc1[N+](=O)[O-], the inhibition was inactive: -5.5%.
In the case of CC(=O)NC(Sc1ccc(Cl)cc1)C(Cl)(Cl)Cl (centres undefined), the inhibition is reported as inactive: -9%.
N=C(N)SCC(Br)CN1C(=O)c2ccccc2C1=O (centres undefined) was tested, and the inhibition was inactive: -5.9%.

— PubChem BioAssay AID1794808 (University of Kansas High Throughput Screening Laboratory, 2022)
